Measurements: patent publication US20210147481A1, “PEPTIDE-BASED INHIBITORS OF MARK FAMILY PROTEINS” (Ohio Universtiy, priority 2017, published 2021)

Amino acid sequences for entries named in this document (tags omitted). A change or cut given only in a name is not applied to a line headed by its entry.
UniProt O08679: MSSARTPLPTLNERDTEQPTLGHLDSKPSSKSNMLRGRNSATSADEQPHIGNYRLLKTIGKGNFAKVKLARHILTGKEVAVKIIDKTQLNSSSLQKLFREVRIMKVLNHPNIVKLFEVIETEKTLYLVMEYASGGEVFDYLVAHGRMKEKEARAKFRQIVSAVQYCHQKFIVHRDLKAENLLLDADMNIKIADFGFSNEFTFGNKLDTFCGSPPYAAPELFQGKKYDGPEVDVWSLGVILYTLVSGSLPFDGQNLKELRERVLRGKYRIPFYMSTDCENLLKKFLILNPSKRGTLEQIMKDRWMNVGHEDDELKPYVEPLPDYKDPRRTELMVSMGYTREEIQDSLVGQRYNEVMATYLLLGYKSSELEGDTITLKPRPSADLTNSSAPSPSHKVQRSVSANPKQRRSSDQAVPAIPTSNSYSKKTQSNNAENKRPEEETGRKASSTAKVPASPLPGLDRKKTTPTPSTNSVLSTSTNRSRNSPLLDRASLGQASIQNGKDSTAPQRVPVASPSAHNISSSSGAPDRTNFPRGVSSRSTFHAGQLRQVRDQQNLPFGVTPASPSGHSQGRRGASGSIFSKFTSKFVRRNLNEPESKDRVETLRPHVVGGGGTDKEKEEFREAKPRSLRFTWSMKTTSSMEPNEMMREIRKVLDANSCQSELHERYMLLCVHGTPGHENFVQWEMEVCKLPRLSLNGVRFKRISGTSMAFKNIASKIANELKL

Key:
MARK2 = MARK2 (Rattus norvegicus, UniProt O08679); assay: Immunofluorescence of PAO-induced MARK2-mediated tau Ser262 phosphorylation in neurons; assay type: cell-based; details: PAO versus untreated controls
[1] = system: kinases that phosphorylate tau at Thr231; assay: Immunofluorescence of tau Thr231 phosphorylation in neurons; assay type: cell-based, rat; details: PAO treatment alone

## O=[As]c1ccccc1 (centres unmarked)
MARK2
  effect on endogenous tau phosphorylation of Ser262: increased endogenous tau phosphorylation of Ser262 significantly over untreated controls
[1]
  effect on phosphorylation at tau Thr231: completely abolished phosphorylation at tau Thr231
